Biological target: AVR-PikD with C-terminal 6xHis tag (Magnaporthe oryzae, UniProt C4B8B8)
Experiment: SPR

B1: Pikp-HMA^NK-KE (domain or fragment)
chain: GLKQKIVIKVAMEGNNCRSKAMALVASTGGVDSVALVGDLRDKIEVVGYGIDPIKLISALRKKVGDAELLQVSQAKED
binding result: binds
